Pooled drug test results. Numbers come from NIAID ChemDB, via PubChem.

Shared fields: whole-cell or culture tests; organism: Candida albicans

Zones are inhibition diameters on agar.

Cc1c(Br)cccc1-c1nnc(CN2CCC(n3nc4ccccc4n3)CC2)o1 ; read-out: zone ; tested at: 900 µg/mL ; result: 9.36 mm
CCCCCCCn1cc[n+](COCCCCOC[n+]2ccn(CCCCCCC)c2)c1 ; strain or isolate: ATCC 90028 ; method: agar diffusion ; read-out: MIC100 ; result: 10 µM
CC(C)(O)c1cn(-c2cccc3ccccc23)nn1 ; strain or isolate: URM 4127 ; method: broth dilution ; read-out: inhibition ; tested at: 2048 µg/mL ; result: 0%
Cc1c(CN(C)C)cc(-c2ccc(Cl)cc2)n1-c1ccccc1 ; strain or isolate: 20 strains ; read-out: Mean MIC ; result: 38.4 µg/mL
COc1ccc(C(C(Cc2ccc(Cl)cc2Cl)c2ccc(Cl)cc2)n2cnnc2)cc1 ; strain or isolate: 28 strains ; read-out: EC50 ; result: >256 µg/mL
C=CCc1ccc(OC)c(OC)c1 ; strain or isolate: 2642 ; method: turbidity ; read-out: MIC90 ; result: 340 µg/mL
Fc1ccc(COc2ccc(C(c3ccc(-c4ccccc4)cc3)n3ccnc3)cc2)cc1.O=[N+]([O-])O ; strain or isolate: 17 strains ; read-out: Mean MIC ; result: ≥256 µg/mL
Cc1ccc(-n2cc(C(C)(C)O)nn2)cc1C ; strain or isolate: URM 4606 ; method: broth dilution ; read-out: inhibition ; tested at: 2048 µg/mL ; result: 0%
COc1ccc(C(C(Cc2ccc(Cl)cc2Cl)c2ccc(Cl)cc2)n2cncn2)cc1 ; strain or isolate: 28 strains ; read-out: EC50 ; result: >256 µg/mL
Cc1ccc2nc(Cl)c(C3SC(=Cc4ccccc4Cl)C(=O)N3n3c(-c4ccc(Cl)cc4)nc4ccccc4c3=O)cc2c1 ; method: broth dilution / visual reading ; read-out: MIC99 ; result: 500 µg/mL
COc1ccc(C(Cc2ccc(Cl)cc2Cl)C(c2ccc(OC)cc2)n2cncn2)cc1 ; strain or isolate: 28 strains ; read-out: inhibition ; tested at: 256 µg/mL ; result: 0%
CC1(C)O[C@H]2[C@H](O)[C@@H](N=[N+]=[N-])C=C(c3ccc(C=O)cc3)[C@H]2O1 ; strain or isolate: ATCC 10231 ; method: broth dilution / turbidity ; read-out: inhibition ; tested at: 31.25 µg/mL ; result: 67.18%
Cc1ccc2nc(Cl)c(C3SC(=Cc4cccc([N+](=O)[O-])c4)C(=O)N3n3c(-c4ccc(Cl)cc4)nc4ccccc4c3=O)cc2c1 ; method: broth dilution / visual reading ; read-out: MIC99 ; result: 500 µg/mL
Cc1ccc(C(C)C)cc1 ; strain or isolate: M1 ; read-out: MLC ; result: 0.16–0.32 µg/mL
CCC(C)n1ncn(-c2ccc(N3CCN(c4ccc(OC[C@H]5CO[C@](Cn6cncn6)(c6ccc(Cl)cc6Cl)O5)cc4)CC3)cc2)c1=O ; read-out: Mean MIC50 ; result: 0.74 µg/mL
Brc1ccccc1-c1nnc(CN2CCC(n3nc4ccccc4n3)CC2)o1 ; read-out: zone ; tested at: 300 µg/mL ; result: 2.5 mm
O=[N+]([O-])O.c1ccc(-c2ccc(C(c3nccc4ccccc34)n3ccnc3)cc2)cc1 ; strain or isolate: 44 strains ; read-out: Mean MIC ; result: 110.8 µg/mL
Cc1c(CN2CCCC2)cc(-c2ccc(Cl)cc2)n1-c1ccc([N+](=O)[O-])cc1 ; strain or isolate: 20 strains ; read-out: Mean MIC ; result: 10.9 µg/mL
CCOc1cc2c(cc1F)n([O-])c(C)c(S(=O)(=O)c1ccccc1)[n+]2=O ; strain or isolate: Clinical isolate 21 ; read-out: MIC ; result: 15.6 µg/mL
C[C@@H](c1nc(-c2ccc(C#N)cc2)cs1)[C@](O)(Cn1cnnc1)c1ccc(F)cc1F ; strain or isolate: A28235 ; read-out: MFC99 ; result: >16 µg/mL
Cc1ccc2nc(Cl)c(C3SC(=Cc4ccc(Cl)cc4)C(=O)N3n3c(-c4ccc(Cl)cc4)nc4ccccc4c3=O)cc2c1 ; method: broth dilution / visual reading ; read-out: MIC99 ; result: 500 µg/mL
CCC(C)n1ncn(-c2ccc(N3CCN(c4ccc(OC[C@H]5CO[C@](Cn6cncn6)(c6ccc(Cl)cc6Cl)O5)cc4)CC3)cc2)c1=O ; strain or isolate: 12 isolates fluconazole-resistant ; read-out: Geometric mean MIC ; result: 7.127 µg/mL
COc1ccc(C=C2SC(c3cc4cc(C)ccc4nc3Cl)N(n3c(-c4ccc(Cl)cc4)nc4ccccc4c3=O)C2=O)cc1 ; method: broth dilution / visual reading ; read-out: MIC99 ; result: 500 µg/mL
COc1ccc(CC(c2ccc(OC)cc2)n2cncn2)cc1 ; strain or isolate: 28 strains ; read-out: EC50 ; result: <256 µg/mL
Fc1ccc(COc2ccc(C(c3nccc4ccccc34)n3ccnc3)cc2)cc1 ; strain or isolate: 17 strains ; read-out: Mean MIC ; result: ≥256 µg/mL
Cc1c(CN2CCCC2)cc(-c2ccc(Cl)cc2)n1-c1ccc(Cl)cc1 ; strain or isolate: 20 strains ; read-out: Mean MIC ; result: 59.8 µg/mL
CCCCCSc1nc2ccc(N)cc2s1 ; strain or isolate: 10 strains ; method: turbidity ; read-out: EC30 ; result: 40–80 µM
COc1ccc(-c2oc3ccc(C)cc3c2C(=O)c2cc(F)c(F)cc2Br)cc1 ; method: broth dilution ; read-out: EC80 ; result: >200 µg/mL
Cc1cc(CN2CCN(C)CC2)c(C)n1-c1ccc(Cl)cc1 ; strain or isolate: 20 strains ; read-out: Mean MIC ; result: 200 µg/mL
COc1ccc(-c2oc3ccc(C)cc3c2C(=O)c2cccc(OC)c2O)cc1 ; method: broth dilution ; read-out: EC80 ; result: >200 µg/mL
Clc1ccc(COc2ccc(C(c3cccc4ccccc34)n3ccnc3)cc2)cc1.O=[N+]([O-])O ; strain or isolate: 16 strains ; read-out: Mean MIC ; result: ≥256 µg/mL
CC(C)CC(O)C(=O)O ; strain or isolate: D 17 ; method: broth dilution / visual reading ; read-out: MFC100 ; result: 72000 µg/mL
Cc1c(S(=O)(=O)c2ccccc2)[n+](=O)c2cc(Cl)ccc2n1[O-] ; strain or isolate: Clinical isolate 14 ; read-out: MIC ; result: 31.25 µg/mL
CC1=CC[C@@H]2[C@H](C1)C2(C)C ; strain or isolate: D5 ; read-out: MLC ; result: 0.08–0.16 µg/mL
Cc1ccc2nc(Cl)c(C3SC(=Cc4cccc(Cl)c4)C(=O)N3n3c(-c4ccc(Cl)cc4)nc4ccccc4c3=O)cc2c1 ; method: broth dilution / visual reading ; read-out: MIC99 ; result: 100 µg/mL
COc1ccc(C(=O)C(Cc2ccc(Cl)cc2Cl)c2ccc(OC)cc2)cc1 ; strain or isolate: 28 strains ; read-out: inhibition ; tested at: 256 µg/mL ; result: 0%
Fc1ccccc1COc1ccc(C(c2nccc3ccccc23)n2ccnc2)cc1 ; strain or isolate: 16 strains ; read-out: Mean MIC ; result: ≥256 µg/mL
CCCCCCCCCCn1cc[n+](COCCCOC[n+]2ccn(CCCCCCCCCC)c2)c1 ; strain or isolate: ATCC 90028 ; method: agar diffusion ; read-out: MIC100 ; result: 8 µM
CC[C@@H](c1ccc(Cl)cc1)[C@@H](c1ccc(OC)cc1)n1cnnc1 ; strain or isolate: 28 strains ; read-out: inhibition ; tested at: 256 µg/mL ; result: 57%
CSc1ccc(C(c2nccc3ccccc23)n2ccnc2)cc1.O=[N+]([O-])O ; strain or isolate: 44 strains ; read-out: Mean MIC ; result: 160.9 µg/mL
CC(C)CC(=O)C(=O)O ; strain or isolate: ATCC 10231 ; method: broth dilution ; read-out: MFC100 ; result: >72000 µg/mL
CC(C)(C)c1cc(-c2nnc(CN3CCC(n4nc5ccccc5n4)CC3)o2)cc(C(C)(C)C)c1 ; read-out: zone ; tested at: 300 µg/mL ; result: 3.97 mm
Cc1cc(C=Nc2ccc(N=Cc3cc(C)cc(/C=N/Nc4nc5ccccc5s4)c3O)cc2)c(O)c(/C=C/Nc2nc3ccccc3s2)c1 ; method: turbidity ; read-out: inhibition ; tested at: 5 µg/mL ; result: 0.36%
Clc1ccc(COc2ccc(C(c3nccc4ccccc34)n3ccnc3)cc2)cc1.O=[N+]([O-])O ; strain or isolate: 17 strains ; read-out: MIC90 ; result: ≥256 µg/mL
Cc1ccc2nc(Cl)c(C3SC(=Cc4cccc(O)c4)C(=O)N3n3c(-c4ccc(Cl)cc4)nc4ccccc4c3=O)cc2c1 ; method: broth dilution / visual reading ; read-out: MIC99 ; result: 100 µg/mL
Cc1c(Sc2ccccc2)[n+](=O)c2cc(Cl)ccc2n1[O-] ; strain or isolate: Clinical isolate 11 ; read-out: MIC ; result: 31.25 µg/mL
CC[C@@H]([C@H](C)O)n1ncn(-c2ccc(N3CCN(c4ccc(OC[C@@H]5CO[C@@](Cn6cncn6)(c6ccc(F)cc6F)C5)cc4)CC3)cc2)c1=O ; strain or isolate: 10 isolates ; method: broth dilution ; setting: pH 5 ; read-out: EC90 ; result: 0.25 µg/mL
CCCCCCCCCCCCCCCCn1cc[n+](COCCCCCCOC[n+]2ccn(CCCCCCCCCCCCCCCC)c2)c1 ; strain or isolate: ATCC 90028 ; method: agar diffusion ; read-out: MIC100 ; result: 100 µM
CC1=C(CCO)C(=O)C(O)=C2C1=CC(=O)[C@@H]1C(C)(C)CCC[C@@]21C ; cells: VERO ; read-out: EC50 ; result: 0.12 µg/mL
Cc1c(CN2CCN(C)CC2)cc(-c2ccc(Cl)cc2)n1-c1ccc([N+](=O)[O-])cc1 ; strain or isolate: 20 strains ; read-out: Mean MIC ; result: 100 µg/mL
O=[N+]([O-])c1ccc(-c2nnc(CN3CCC(n4nc5ccccc5n4)CC3)o2)cc1Cl ; read-out: zone ; tested at: 900 µg/mL ; result: 12.86 mm
CC(C)[S+](C)CC[C@@H](C)C1CCC2C3CC=C4CC(O)CCC4(C)C3CCC21C.[I-] ; read-out: MLC ; result: 50 µg/mL
CCCCCOc1ccc(-c2cc(-c3ccc(C(=O)N[C@H]4C[C@@H](O)[C@@H](O)NC(=O)[C@@H]5[C@@H](O)[C@@H](C)CN5C(=O)[C@H]([C@H](O)CC(N)=O)NC(=O)[C@H]([C@H](O)[C@@H](O)c5ccc(O)c(OS(=O)(=O)O)c5)NC(=O)[C@@H]5C[C@@H](O)CN5C(=O)[C@H]([C@@H](C)O)NC4=O)cc3)no2)cc1 ; strain or isolate: 5 isolates fluconazole-susceptible ; read-out: Geometric mean MIC ; result: 0.01 µg/mL
CN(CCCC#CC(C)(C)C)c1cccc2c1CCC(=O)N2 ; strain or isolate: Clinical isolate 20 ; read-out: MIC ; result: 15.6 µg/mL
CC(C)(O)c1cn(-c2ccc3ccccc3c2)nn1 ; strain or isolate: URM 4817 ; method: broth dilution ; read-out: inhibition ; tested at: 2048 µg/mL ; result: 0%
Cc1c(CN(C)C)cc(-c2ccccc2)n1-c1ccc(Cl)cc1 ; strain or isolate: 20 strains ; read-out: Mean MIC ; result: 51.9 µg/mL
COc1ccc(-c2oc3ccc(C)cc3c2C(=O)c2ccc(O)cc2)cc1 ; method: broth dilution ; read-out: EC80 ; result: >200 µg/mL

The last 4 rows once more:

smiles | strain or isolate | cells | method | setting | read-out | tested at | result
CN(CCCC#CC(C)(C)C)c1cccc2c1CCC(=O)N2 | Clinical isolate 20 | - | - | - | MIC | - | 15.6 µg/mL
CC(C)(O)c1cn(-c2ccc3ccccc3c2)nn1 | URM 4817 | - | broth dilution | - | inhibition | 2048 µg/mL | 0%
Cc1c(CN(C)C)cc(-c2ccccc2)n1-c1ccc(Cl)cc1 | 20 strains | - | - | - | Mean MIC | - | 51.9 µg/mL
COc1ccc(-c2oc3ccc(C)cc3c2C(=O)c2ccc(O)cc2)cc1 | - | - | broth dilution | - | EC80 | - | >200 µg/mL

An empty or dashed field is not shown. ECn: concentration that inhibits the pathogen or its effect by n%. Lines come from different laboratories, so protocols vary. a–b is a range or a potency band. A number after MIC or MFC names an inhibition level or a share of isolates. Percent inhibition refers to the dose given; in toxicity tests it is the harm to the cells.